Results of unrelated studies side by side (data: NIAID ChemDB).

Shared fields: growth or infection tests; agent: HIV-2; cell line: MT-4; measure: EC50

An empty or dashed field is not shown. ECn: concentration that inhibits the pathogen or its effect by n%. Neighbouring rows are from separate reports.

structure | strain | method | value
O=C1[C@@H](Cc2ccccc2)NC(=S)N1Cc1ccccc1 |  | RT activity | <10 µg/mL
CC1(C)[C@@H](CCO)C[C@H]1n1nnc2c(N)ncnc21 |  | cytopathic effect | >100 µg/mL
O=C(COc1ccc2ccccc2c1)NCC(=O)NNC(=S)NCc1ccccc1 | ROD | MTT | >67 µg/mL
O=C(NCCc1ccccc1)Nc1nc2ccccc2s1 |  | cytopathic effect / XTT | <1 µg/mL
Cc1cn([C@@H]2O[C@H](COC(=O)C(C)(C)C)[C@@H](O)[C@H]2OC(=O)C(C)(C)C)c(=O)n(CC(=O)O)c1=O | ROD | cytopathic effect / trypan blue | >50 µM
C#CCn1cc(Cl)c(=O)[nH]c1=O | ROD | cytopathic effect | >100 µg/mL
COC(=O)/C=C1\S/C(=N/N=C/c2cc([N+](=O)[O-])ccc2O)NC1=O | ROD | cytopathic effect / MTT | >0.088 µM
O=C(COc1ccc2ccccc2c1)NCC(=O)NNC(=S)Nc1ccccc1 | ROD | MTT | >69.9 µg/mL
Cc1ccc(NC(=O)COc2nsnc2-c2cccc3ccccc23)c(Br)c1 | ROD | MTT | >14 µM
CC(c1nnc(SCc2ccc(Br)cc2)o1)N(Cc1ccc(Br)cc1)S(=O)(=O)c1ccc(Cl)cc1 | ROD |  | >125 µg/mL
CSC(=NCc1ccccc1)Nn1c(C)nc2ccccc2c1=O | ROD | MTT | 50.32 µg/mL
COc1ccc(Nc2nnc(C(Cc3ccccc3)NS(=O)(=O)c3ccc(OC)cc3)s2)cc1 | ROD | MTT | >93.25 µM
Cc1ccc(S(=O)(=O)N(Cc2ccc(Br)cc2)C(C)c2nnc(SCc3ccc(Br)cc3)o2)cc1 | ROD |  | >125 µg/mL
CC1=C(N)C(C)(Cc2ccccc2)OS1(=O)=O | ROD | cytopathic effect / MTT | >125 µg/mL
CC(C)CCC[C@@H](C)[C@H]1CC[C@H]2[C@@H]3CC[C@H]4C[C@@H](CCC=C(c5cc(Cl)c(OCc6ccc(C(=O)O)cc6)c(C(=O)O)c5)c5cc(Cl)c(OCc6ccc(C(=O)O)cc6)c(C(=O)O)c5)CC[C@]4(C)[C@H]3CC[C@]12C | ROD | cytopathic effect / MTT | 55 µM
CC1=C(N)C(C)(C)N(Cc2ccccc2)S1(=O)=O | ROD | cytopathic effect / MTT | >125 µg/mL
CCCCN1C(=O)[C@@H](Cc2ccccc2)NC1=S |  | RT activity | <100 µg/mL
CSC(=Nc1ccc([N+](=O)[O-])cc1)Nn1c(C)nc2ccccc2c1=O | ROD | MTT | 1.56 µg/mL
CC(C)(C)[Si](C)(C)OC[C@H]1O[C@@H](n2cnc3c(=O)n(CC(=O)O)cnc32)[C@H](O)[C@@H]1O[Si](C)(C)C(C)(C)C | ROD | cytopathic effect / trypan blue | 22 µM
Clc1cccc(Nn2cnc3c2CCCC3)c1 | ROD | cytopathic effect / MTT | >67.29 µM
Cc1cc(C)c(S(N)(=O)=O)c(C)c1-c1c2nc(c(-c3c(C)cc(C)c(S(N)(=O)=O)c3C)c3ccc([nH]3)c(-c3c(C)cc(C)c(S(N)(=O)=O)c3C)c3nc(c(-c4c(C)cc(C)c(S(N)(=O)=O)c4C)c4ccc1[nH]4)C=C3)C=C2 | ROD | cytopathic effect / MTT | >80 µg/mL
COc1ccc(Nc2nnc(C(C)NS(=O)(=O)c3ccc(Cl)cc3)s2)cc1 | ROD | MTT | >21.38 µM
O=C1[C@@H](Cc2ccccc2)NC(=S)N1c1ccccc1 |  | cytopathic effect / XTT | <100 µg/mL
CSC(=Nc1ccc(Br)cc1)Nn1c(C)nc2ccccc2c1=O | ROD | MTT | 2.66 µg/mL
Cc1cc(C#N)cc(C)c1Oc1nc(NC2CCN(S(N)(=O)=O)CC2)nc2ccsc12 | ROD | MTT | >20.35 µM
CC1=CC(=C(c2ccc(N)c(S(=O)(=O)O)c2)c2ccc(N)c(S(=O)(=O)O)c2)C=C(S(=O)(=O)O)C1=N |  | cytopathic effect | 63 µM
[N-]=[N+]=N[C@H]1C[C@@H](CO)O[C@H]1n1cnc2c(NC3CCCC3)ncnc21 | ROD |  | >125 µg/mL
Cc1ccc(S(=O)(=O)NC(C)c2nnc(SCc3ccccc3)o2)cc1 | ROD |  | >59.58 µg/mL
COC(=O)Cn1c(=O)c(C)cn([C@H]2C=C[C@@H](CO[Si](C)(C)C(C)(C)C)O2)c1=O | ROD | cytopathic effect / trypan blue | >10 µM
CC1(C)OS(=O)(=O)C=C1NCCc1ccccc1 | ROD | cytopathic effect / MTT | >125 µg/mL
Cc1cn([C@H]2C=C[C@@H](CO)O2)c(=O)[nH]c1=O | ROD | MTT | 0.024 µM
Cn1c([S-])nc2nc(-c3ccccc3)c(-c3ccccc3)nc2c1=O.Cn1c([S-])nc2nc(-c3ccccc3)c(-c3ccccc3)nc2c1=O.[O]=[V+2] | ROD | cytopathic effect | 18.95 µg/mL
CCn1cc(C(=O)O)c(=O)c2cc(F)c(N3CCN(c4ccccc4OC)CC3)c(OC(F)F)c21 | EHO | cytopathic effect / MTT | 0.5 µM
Cn1c2ccccc2c2c1cc(C#N)c(=O)n2-c1ccc([N+](=O)[O-])cc1 |  | cytopathic effect / MTT | 0.25 µM
Cc1cn([C@@H]2O[C@H](CO[Si](C)(C)C(C)(C)C)[C@@H](O)[C@H]2O[Si](C)(C)C(C)(C)C)c(=O)n(CCCCC(=O)O)c1=O | ROD | cytopathic effect / trypan blue | ≥10 µM
Cc1ccc(NC(=S)NNC(=O)CNC(=O)COc2ccc3ccccc3c2)cc1 | ROD | MTT | >91.4 µg/mL
COc1ccc(S(=O)(=O)NC(c2nnc(Nc3ccc(Br)cc3)s2)C(C)C)cc1 | ROD | MTT | >9.39 µM
Cc1ccc(S(=O)(=O)NC(Cc2ccccc2)c2nnc(SCc3ccc(Br)cc3)o2)cc1 | ROD |  | >82.1 µg/mL
Nc1ccn(C23C=C[C@@H](CO)[C@@H]2C3)c(=O)n1 | ROD | MTT | >61.8 µg/mL
COC(=O)c1c(C)[nH]c(=S)n1Nc1cccc(Cl)c1 | ROD | cytopathic effect / MTT | >190 µM
O=c1[nH]c(=O)n(Cc2cn(COCCO)nn2)cc1Cl | ROD | cytopathic effect | >100 µg/mL
CC1(C)[C@@H](CCO)C[C@H]1n1cnc2c(N)nc(N)nc21 |  | cytopathic effect | >250 µg/mL
O=C(O)C1=CC(=C(c2ccc(O)c(C(=O)O)c2)c2ccc(O)c(C(=O)O)c2)C=C(Cc2ccc(O)c(C(=O)O)c2)C1=O | ROD | cytopathic effect / MTT | 7.1 µg/mL
CC1(C)[C@@H](CCO)C[C@H]1n1nnc2c(=O)[nH]cnc21 |  | cytopathic effect | >100 µg/mL
[N-]=[N+]=N[C@H]1C[C@@H](CO)O[C@H]1n1cnc2c(NC3CC3)ncnc21 | ROD |  | >125 µg/mL
COC(=O)/C=C1\S/C(=N/N=C/c2cccc(OC)c2)NC1=O | ROD | cytopathic effect / MTT | >61.3 µM
COc1ccc(Nc2nnc(C(NS(=O)(=O)c3ccc(Br)cc3)C(C)C)s2)cc1 | ROD | MTT | >9.57 µM
Nc1ccn([C@@H]2CS[C@H](CO)O2)c(=O)n1 | ROD | MTT | 9.7 µM
CC(=O)OCCOCn1cc(Cn2cc(Br)c(=O)[nH]c2=O)nn1 | ROD | cytopathic effect | >100 µg/mL
CC(C)[C@H](NC(=O)c1ccccc1)C(=O)N/N=C/c1ccccc1F | ROD | MTT | >366 µM
NS(=O)(=O)c1ccc(-c2c3nc(c(-c4ccc(S(N)(=O)=O)cc4)c4ccc([nH]4)c(-c4ccc(S(N)(=O)=O)cc4)c4nc(c(-c5ccc(S(N)(=O)=O)cc5)c5ccc2[nH]5)C=C4)C=C3)cc1 | ROD | cytopathic effect / MTT | >5 µg/mL
Cc1cccc(Nn2cnc(C)c2C)c1 | ROD | cytopathic effect / MTT | >312 µM
O=C(NCCc1ccccc1)Nc1nc(C(F)(F)F)cs1 |  | cytopathic effect / XTT | <1 µg/mL
CSCCC(c1nnc(SCc2ccc(Br)cc2)o1)N(Cc1ccc(Br)cc1)S(=O)(=O)c1ccc(C)cc1 | ROD |  | >125 µg/mL
Cc1ccc(S(=O)(=O)NC(Cc2ccccc2)c2nnc(Nc3ccc(F)cc3)s2)cc1 | ROD | MTT | >2.06 µM
CNOC(=O)Cn1c(=O)c(C)cn([C@@H]2O[C@H](CO[Si](C)(C)C(C)(C)C)[C@@H](O[Si](C)(C)C(C)(C)C)[C@H]2O)c1=O | ROD | cytopathic effect / trypan blue | >10 µM
CC(=O)OCCOCn1cc(Cn2cc(Cl)c(=O)[nH]c2=O)nn1 | ROD | cytopathic effect | >100 µg/mL
O=C(COc1nsnc1-c1cccc2ccccc12)Nc1ccccc1F | ROD | MTT | >126 µM
O=c1[nH]c(=O)n(Cc2cn(COCCO)nn2)cc1I | ROD | cytopathic effect | >100 µg/mL
Cc1[nH]c(=S)n(Nc2ccccc2)c1C | ROD | cytopathic effect / MTT | >181 µM
CC1=C[C@H](Cn2cnc3c(NC4CC4)ncnc32)C[C@@H]1CO | ROD | MTT | >100 µg/mL
C#CCn1cc(F)c(=O)[nH]c1=O | ROD | cytopathic effect | >100 µg/mL
N#Cc1csc(NC(=O)NCCc2ccccc2)n1 |  | cytopathic effect / XTT | >100 µg/mL
Cc1cn([C@@H]2O[C@H](CO[Si](C)(C)C(C)(C)C)[C@@H](O)[C@H]2O[Si](C)(C)C(C)(C)C)c(=O)n(Cc2nn[nH]n2)c1=O | ROD | cytopathic effect / trypan blue | >2 µM
COC(=O)c1ccc(NC(=O)COc2nsnc2-c2cccc3ccccc23)c(Br)c1 | ROD | MTT | >100 µM
C#CCn1cc(I)c(=O)[nH]c1=O | ROD | cytopathic effect | >100 µg/mL
O=C(COc1ccc2ccccc2c1)NCC(=O)NNC(=S)Nc1ccc(Cl)cc1 | ROD | MTT | >11.2 µg/mL
Cc1cc(C#N)cc(C)c1Oc1nc(NC2CCN(S(=O)(=O)N3CCOCC3)CC2)nc2ccsc12 | ROD | MTT | >236.4 µM
Cc1ncn(Nc2cccc(Cl)c2)c1-c1cccc(Br)c1 | ROD | cytopathic effect / MTT | 0.91 µM
Clc1ccc(Cn2cc(COc3nsnc3-c3cccc4ccccc34)nn2)cc1 | ROD | MTT | >115 µM
Cc1ccc(S(=O)(=O)NC(Cc2ccccc2)c2nnc(SCc3ccccc3)o2)cc1 | ROD |  | >11.67 µg/mL
CN=C(Nn1c(C)nc2ccccc2c1=O)SC | ROD | MTT | 100 µg/mL
Cc1cc(C#N)cc(C)c1Oc1nc(Nc2ccc(NS(C)(=O)=O)cc2)nc2ccsc12 | ROD | MTT | >268.4 µM
COC(=O)/C=C1\S/C(=N/N=C/c2cc(OC)c(O)c(OC)c2)NC1=O | ROD | cytopathic effect / MTT | >14.5 µM
CC(C)[C@@H](NC(=O)c1ccccc1)C(=O)N/N=C/c1c(F)cccc1F | ROD | MTT | >348 µM
CC(C)CN(C[C@@H](O)[C@H](Cc1ccccc1)NC(=O)O[C@H]1CO[C@H]2OCC[C@H]21)S(=O)(=O)c1ccc2nc(NC3CCN(C4CCCC4)CC3)sc2c1 | ROD | reporter gene | 0.0027 µM
CCOC(=O)c1ccc(NC(=O)COc2nsnc2-c2cccc3ccccc23)c(Br)c1 | ROD | MTT | >98 µM
O=C(O)c1cc(C(c2ccc(O)c(C(=O)O)c2)c2ccc(O)c(C(=O)O)c2)ccc1O | ROD | cytopathic effect / MTT | 8.3 µg/mL
C#CCn1cc(Br)c(=O)[nH]c1=O | ROD | cytopathic effect | >100 µg/mL
COC(=O)/C=C1\S/C(=N/N=C/c2ccc(N(C)C)cc2)NC1=O | ROD | cytopathic effect / MTT | >87.25 µM
CC1(Cc2ccccc2)OS(=O)(=O)C(c2ccccc2)=C1N | ROD | cytopathic effect / MTT | >125 µg/mL
Cc1cc(C#N)cc(C)c1Oc1nc(NC2CCN(S(=O)(=O)c3ccc(-c4ccccc4)cc3)CC2)nc2ccsc12 | ROD | MTT | >209.8 µM
COC(=O)/C=C1\S/C(=N/N=C/c2ccc(OCc3ccccc3)cc2)NC1=O | ROD | cytopathic effect / MTT | >97.45 µM
CSC(=Nc1ccc(Cl)cc1)Nn1c(C)nc2ccccc2c1=O | ROD | MTT | 1.93 µg/mL
CC(C)[C@@H](NC(=O)c1ccccc1)C(=O)N/N=C/c1ccccc1F | ROD | MTT | >366 µM

Again, the opening 7 rows:

{"structure": "O=C1[C@@H](Cc2ccccc2)NC(=S)N1Cc1ccccc1", "method": "RT activity", "value": "<10 µg/mL"}
{"structure": "CC1(C)[C@@H](CCO)C[C@H]1n1nnc2c(N)ncnc21", "method": "cytopathic effect", "value": ">100 µg/mL"}
{"structure": "O=C(COc1ccc2ccccc2c1)NCC(=O)NNC(=S)NCc1ccccc1", "strain": "ROD", "method": "MTT", "value": ">67 µg/mL"}
{"structure": "O=C(NCCc1ccccc1)Nc1nc2ccccc2s1", "method": "cytopathic effect / XTT", "value": "<1 µg/mL"}
{"structure": "Cc1cn([C@@H]2O[C@H](COC(=O)C(C)(C)C)[C@@H](O)[C@H]2OC(=O)C(C)(C)C)c(=O)n(CC(=O)O)c1=O", "strain": "ROD", "method": "cytopathic effect / trypan blue", "value": ">50 µM"}
{"structure": "C#CCn1cc(Cl)c(=O)[nH]c1=O", "strain": "ROD", "method": "cytopathic effect", "value": ">100 µg/mL"}
{"structure": "COC(=O)/C=C1\\S/C(=N/N=C/c2cc([N+](=O)[O-])ccc2O)NC1=O", "strain": "ROD", "method": "cytopathic effect / MTT", "value": ">0.088 µM"}